A mixed list of measured activities; the numbers were collected in NIAID ChemDB.

Common to all: whole-cell or culture tests; agent: Pneumocystis carinii; endpoint: inhibition

Rows are shuffled and stem from different studies. Inhibition is in % at the dose shown (toxicity tests: loss of growth or viability). Blank or dashed fields: not listed here.

SMILES | setting | tested at | result
C(=C\COc1ccc(C2=NCCN2)cc1)/COc1ccc(C2=NCCN2)cc1 |  | 0.2 µM | 58%
NC(=NCCCc1ccccc1)c1ccc(N2CCN(c3ccccc3)CC2)cc1 |  | 50 µg/mL | 95%
CC(C)(C)CN=C(N)c1ccc(N2CCCN(c3ccc(C(N)=NCC(C)(C)C)cc3)CC2)cc1 |  | 1 µM | 35%
N=C(N)c1ccc(OCCCCCOc2ccc(C(=N)N)cc2)cc1 |  | 50 µg/mL | 92%
C=CCSSSCC=C | 7 d | 1000 µg/mL | 30%
NC(=NCc1ccc(F)cc1)c1ccc(N2CCN(c3ccccc3)CC2)cc1 |  | 50 µg/mL | 73%
CC(C)CN(C[C@@H](O)[C@H](Cc1ccccc1)NC(=O)O[C@H]1CCOC1)S(=O)(=O)c1ccc(N)cc1 |  | 0.32 µM | 59.29%
C(=C/COc1ccc(C2=NCCN2)cc1)/COc1ccc(C2=NCCN2)cc1 |  | 0.2 µM | 75%
CCCCN=C(N)c1ccc(N2CCN(c3ccccc3)CC2)cc1 |  | 10 µg/mL | 92%
CC(=O)Nc1ccc(C(=O)O)cc1 |  | 1 µM | 20%
NCCCNCCCCCCCNCCCN |  | 30 µM | 0%
N=C(N)c1ccc(OC/C=C/COc2ccc(C(=N)N)cc2)cc1 |  | 0.2 µM | 81%
NC(=NCCCO)c1ccc(N2CCCN(c3ccc(C(N)=NCCCO)cc3)CC2)cc1 |  | 1 µM | 0%
Cc1[nH]c2nc(N)[nH]c(=O)c2c1CSc1ccncc1 |  | 32 µM | 76%
CC(=O)N(O)CCCCCNC(=O)CCC(=O)N(O)CCCCCNC(=O)CCC(=O)N(O)CCCCCN |  | 25 µM | 25%
CCCCCCN=C(N)c1ccc(N2CCN(c3ccccc3)CC2)cc1 |  | 50 µg/mL | 91%
NC(N)=NC(=O)c1nc(Cl)c(N)nc1N |  | 100 µM | 8%
c1cc(N2CCCN(c3ccc(C4=NCCCN4)cc3)CC2)ccc1C1=NCCCN1 |  | 1 µM | 68%
CCC(CC)N=C(N)c1ccc(N2CCN(c3ccccc3)CC2)cc1 |  | 0.1 µg/mL | 43%

The last 2 rows once more:

SMILES | setting | tested at | result
c1cc(N2CCCN(c3ccc(C4=NCCCN4)cc3)CC2)ccc1C1=NCCCN1 |  | 1 µM | 68%
CCC(CC)N=C(N)c1ccc(N2CCN(c3ccccc3)CC2)cc1 |  | 0.1 µg/mL | 43%